In experiment [1] the test system is PR8-induced gene expression of cytokines in HD11 macrophages. The experiment is classed as cell-based, chicken.
A further experiment deals with H1N1/PR8. The experiment is classed as cell-based, Influenza A virus. The conditions noted are these: pre- or post-incubation of cells with peptide for 1 h, H1N1/PR8, HD11 and MDCK cells.

As to “LLGDFFRKSKEKIGKEFK RIVQRIKDFLRNLVPRTES [LL-37, human cathelicidin, 37 amino acids, used for comparison, reference compound]”, the “PR8-induced gene expression of IFN-β, IL-1β, IL-6, and IL-8” value (shortened to “PR8-induced gene expression of IFN-β”) in experiment [1] is “the inhibition was not as pronounced as observed for CATH-B1”. “PIRNWWIRIWEWLNGIRK RLRQRSPFYVRGHLNVTSTPQP [CATH-B1, chicken cathelicidin, 40 amino acids, synthesized by Fmoc-chemistry]”: the “effect on viral infection when peptide is given before or after virus inoculation” value with H1N1/PR8 was “did not reduce viral infection”. In addition, in experiment [1], the “PR8-induced gene expression of IFN-β” value is on record as “downregulated”. For “RFGRFLRKIRRFRPKVTITIQGSARF [CATH-2, chicken cathelicidin, 26 amino acids]”, in experiment [1], the “PR8-induced gene expression of IFN-β” value is “the inhibition was not as pronounced as observed for CATH-B1”.

(Values after article PMC7096384, “Antiviral Activity of Chicken Cathelicidin B1 Against Influenza A Virus” (Frontiers in Microbiology, 2020).)
